Compound potency records, mixed from different reports. Data source: NIAID ChemDB in PubChem.

Common to all: growth or infection tests; agent: Mycobacterium tuberculosis

Blank or dashed fields: not listed here. MIC bound comes from a single tested concentration. Rows are shuffled and stem from different studies. A number after MIC or MFC names an inhibition level or a share of isolates. Inhibition is in % at the dose shown (toxicity tests: loss of growth or viability). a–b is a range or a potency band.

structure,mutations,tested at,strain or isolate,cells,read by,measure,result
CC1COc2c(N3CCN(C(=O)C4COc5ccccc5O4)CC3)c(F)c([N+](=O)[O-])c3c(=O)c(C(=O)O)cn1c23,,,MDR-TB,,agar,MIC99,1.41 µM
CCOC(=O)c1cn(CC)c2cc3c(cc2c1=O)SCS3,,12.5 µg/mL,H37Rv,,BACTEC,inhibition,28%
CCOC(=O)c1cn(S(=O)(=O)c2ccc(C)cc2)cc1-c1ccncc1,,,CIP103471,,,MIC,4 µg/mL
C=C1C(=O)O[C@@H]2C[C@@]3(C)CCCC(C)=C3C[C@H]12,,,H37Rv,,,MIC,32 µg/mL
COc1ccc(-c2c(N)cnc(C(=O)O)c2C)c(O)c1OC,,,H37Rv,,BACTEC,MIC bound,>12.5 µg/mL
CO[C@H]1/C=C/O[C@@]2(C)Oc3c(C)c(O)c4c(O)c(c(/C=N/N5CCC(N(C)C)CC5)c(O)c4c3C2=O)NC(=O)/C(C)=C\C=C\[C@H](C)[C@H](O)[C@@H](C)[C@@H](O)[C@@H](C)[C@H](OC(C)=O)[C@@H]1C,,,H37Rv,,,MIC,2 µg/mL
CCc1nc2ccc(Cl)cn2c1C(=O)NCc1ccc(N2CCN(c3ccc(S(F)(F)(F)(F)F)cc3)CC2)cc1,,,H37Rv,,resazurin,MIC90,<2 µM
C=CC1(C)CCC2C(=CCC3C2(C)CC(O)C(O)C3(C)COC2OC(CO)C(O)C(O)C2O)C1,,12.5 µg/mL,H37Rv,,BACTEC,inhibition,0%
CO[C@H]1/C=C/O[C@@]2(C)Oc3c(C)c(O)c4c(O)c(cc(O)c4c3C2=O)NC(=O)/C(C)=C\C=C\[C@H](C)[C@H](O)[C@@H](C)[C@@H](O)[C@@H](C)[C@H](OC(C)=O)[C@@H]1C,,,H37Rv,,,MIC,0.05 µg/mL
NS(=O)(=O)c1nnc2sc3ccccc3n12,,,H37Rv,,,MIC,10 µg/mL
Cn1c(=O)c2n[se]nc2n(C)c1=O,,12.5 µg/mL,H37Rv,,BACTEC,inhibition,0%
COc1ccc(-c2cn(C)cc2[N+](=O)[O-])c(Cl)c1,,,CIP103471,,,MIC,>250 µg/mL
CO[C@H]1/C=C/O[C@@]2(C)Oc3c(C)c(O)c4c(=O)c(c5oc6cc(N7CCN(CC(C)C)CC7)cc(=O)c6nc5c4c3=C2O)NC(=O)/C(C)=C\C=C\[C@H](C)[C@H](O)[C@@H](C)[C@@H](O)[C@@H](C)[C@H](OC(C)=O)[C@@H]1C,,,16 strains (rifampicin-susceptible),,,MIC50,≤0.0125 µg/mL
COc1ccc(/C=N/NC(=O)c2sc3ccc(Oc4ccccc4)cc3c2Cl)cc1,,6.25 µg/mL,H37Rv,,,inhibition,0%
Cc1cn2c(C(=O)NCc3ccc(N4CCC(c5ccc(OC(F)(F)F)cc5)CC4)cc3)c(C)nc2s1,,,H37Rv,,resazurin,MIC90,<2 µM
CO[C@H]1/C=C/O[C@@]2(C)Oc3c(C)c(O)c4c(O)c(c(C=Nc5cccc(C)c5)c(O)c4c3C2=O)NC(=O)/C(C)=C\C=C\[C@H](C)[C@H](O)[C@@H](C)[C@@H](O)[C@@H](C)[C@H](OC(C)=O)[C@@H]1C,,,H37Rv,,,MIC,5 µg/mL
Cc1onc(-c2c(F)cccc2F)c1C(=O)N1CCN(c2c(F)c([N+](=O)[O-])c3c(=O)c(C(=O)O)cn4c3c2OCC4C)CC1,,,,,agar,MIC99,5.1 µM
CN/N=C/c1c2c(O)c3c(O)c(C)c4c(c3c1O)C(=O)[C@@](C)(O/C=C/[C@H](OC)[C@@H](C)[C@@H](OC(C)=O)[C@H](C)[C@H](O)[C@H](C)[C@@H](O)[C@@H](C)/C=C/C=C(/C)C(=O)N2)O4,,,H37Rv,,,MIC,5 µg/mL
C[C@H]1COc2c(N3CCN(Cc4ccc5c(c4)OCO5)CC3)c(F)cc3c(=O)c(C(=O)O)cn1c23,,,,,agar,MIC99,6.5 µM
CSC(=S)N/N=C(/C)Cc1ccccn1,,,EMB-R,,,MIC,1.6 µg/mL
Cc1nc2cc(Cl)ccn2c1C(=O)NCc1ccc2c(c1)CCO2,,,H37Rv,,resazurin,MIC90,<2 µM
CC1=C2C(=CO[C@H](C)[C@H]2C)C(=O)C(C(=O)O)=C1O,,10 µg/mL,M.AV,,,inhibition,22%
O=C(Cc1ccc(O)cc1)N1COC(c2sc3ccc(Oc4ccccc4)cc3c2Cl)=N1,,6.25 µg/mL,H37Rv,,,inhibition,4%
CSc1cc(=O)n2c3ccccc3c3ccnc1c32,,12.8 µg/mL,H37Rv,,BACTEC,inhibition,20%
Cc1nc(N)c2ncn([C@@H]3O[C@H](CO)[C@@H](O)[C@H]3O)c2n1,,,H37Rv,,,MIC,8 µg/mL
O=S(=O)(Nc1ncccn1)c1nnc2sc3ccccc3n12,,,H37Rv,,,MIC,100 µg/mL
Cc1cn2c(C(=O)NCc3ccc(N4CCS(=O)(=O)CC4)cc3)c(C)nc2s1,,,H37Rv,,resazurin,MIC90,<2 µM
CCN(CC)CCC(=O)Oc1ccc(NC(=O)OC2CCC(OC(=O)Nc3ccc(OC(=O)CCN(CC)CC)cc3)CC2)cc1,,6.25 µg/mL,H37Rv,,resazurin,inhibition,23%
Cc1ccc2nc(C)c(C(=O)NCc3ccc(S(F)(F)(F)(F)F)cc3)n2c1,,,H37Rv,,resazurin,MIC90,<2 µM
COc1ccc2c(C)cc(N/N=C/c3ccc(OC)c4ccccc34)nc2c1,,,H37Rv,VERO,BACTEC,MIC,12.5 µg/mL
CC(C)=CCc1cc(/C=C/C(=O)c2cc(CC=C(C)C)c(O)cc2O)ccc1O,,,H37Rv,,resazurin,MIC,39.06 µg/mL
COc1ccc(CC(=O)N2COC(c3sc4ccc(Oc5ccccc5)cc4c3Cl)=N2)cc1OC,,6.25 µg/mL,H37Rv,,,inhibition,0%
Cc1ccnc(NS(=O)(=O)c2nnc3sc4ccccc4n23)c1,,,H37Rv,,,MIC,1 µg/mL
O=C(N/N=C/c1ccc(O)cc1)c1sc2ccc(Oc3ccccc3)cc2c1Cl,,6.25 µg/mL,H37Rv,,,inhibition,5%
CN(C)CC1CN(/N=C/C=C/c2ccc([N+](=O)[O-])o2)C(=O)O1,,12.5 µg/mL,H37Rv,,BACTEC,inhibition,6%
NC1[C@H]2CN(c3nc4c(cc3F)c(=O)c(C(=O)O)cn4-c3ccc(F)cc3F)C[C@@H]12,,,,,,MIC50,32 µg/mL
CCCCCC/C=C/CCCCCCCCCC1=CC(=O)C=C(OC)C1=O,,128 µg/mL,H37Rv,,BACTEC,inhibition,99%
C[C@H]1COc2c(N3CCC(n4c(=O)[nH]c5cc(Cl)ccc54)CC3)c(F)cc3c(=O)c(C(=O)O)cn1c23,,,MDR-TB,,agar,MIC99,0.76 µM
Cc1ccn2c(C(=O)NCc3ccc(N4CCN(C(=O)OCC(C)C)CC4)c(F)c3)c(C)nc2c1,,,H37Rv,,resazurin,MIC90,2–10 µM
CC1COc2c(N3CCN(C(=O)c4ccco4)CC3)c(F)c([N+](=O)[O-])c3c(=O)c(C(=O)O)cn1c23,,,,,agar,MIC99,0.8 µM
C[C@@H]1C(=O)N(C)C(=O)[C@H]1N,,12.8 µg/mL,H37Rv,,BACTEC,inhibition,-7%
Cc1ccn2c(C(=O)NCc3ccc(N4CCC(NCC5CC5)CC4)c(F)c3)c(C)nc2c1,,,H37Rv,,resazurin,MIC90,<2 µM
O=[N+]([O-])c1ccc2sc3nnc(SCc4ccc(C(F)(F)F)cc4)n3c2c1,,,H37Rv,,,MIC,20 µg/mL
C=C1C(=O)O[C@@H]2C[C@@]3(C)CCC(=O)C(C)=C3C[C@H]12,,,H37Rv,,,MIC,128 µg/mL
COc1ccc(CC2COC(=O)C2Cc2ccc3c(c2)OCO3)cc1OC,,128 µg/mL,H37Rv,,resazurin,inhibition,67%
CO/N=C1\CN(c2nc3c(cc2F)c(=O)c(C(=O)O)cn3C2CC2)CC1CN,,,,,,MIC90,8 µg/mL
CC1COc2c(N3CCN(C)CC3)c(F)cc3c(=O)c(C(=O)O)cn1c23,,,H37RV (INH-R),,,MIC,0.63–1.25 µg/mL
CCOC(=O)c1cn(S(=O)(=O)c2ccc([N+](=O)[O-])cc2)cc1-c1ccncc1,,,CIP103471,,,MIC,>250 µg/mL
C[C@H]1COc2c(N3CCN(C(=O)c4ccco4)CC3)c(F)cc3c(=O)c(C(=O)O)cn1c23,,,,,agar,MIC99,7.09 µM
NNC(=O)C1C2C=CC(C2)C1C(=O)NN,,12.5 µg/mL,H37Rv,,BACTEC,inhibition,-3%
COc1cc(CC(=O)N2COC(c3sc4ccc(Oc5ccccc5)cc4c3Cl)=N2)ccc1O,,6.25 µg/mL,H37Rv,,,inhibition,6%
COc1ccc2c(c1)[n+]([O-])c(-c1ccccc1)c(N)[n+]2[O-],,,PZA-R,,,MIC,6.3 µg/mL
CSc1ccc(CC(=O)N2COC(c3sc4ccc(Oc5ccccc5)cc4c3Cl)=N2)cc1,,6.25 µg/mL,H37Rv,,,inhibition,3%
C[C@H]1COc2c(N3CCN(C)CC3)c(F)cc3c(=O)c(C(=O)O)cn1c23,INH RIF resistant,,Clinical isolate 309,,resazurin,MIC,0.25 µg/mL
CO/N=C/c1c2c(O)c3c(O)c(C)c4c(c3c1O)C(=O)[C@@](C)(O/C=C/[C@H](OC)[C@@H](C)[C@@H](OC(C)=O)[C@H](C)[C@H](O)[C@H](C)[C@@H](O)[C@@H](C)/C=C/C=C(/C)C(=O)N2)O4,,,H37Rv,,,MIC,0.1 µg/mL
CCN(CC)CCN1C(=O)c2cccc3cc(N)cc(c23)C1=O,,6.25 µg/mL,H37Rv,,resazurin,inhibition,9%
C[C@H]1COc2c(N3CCN(C)CC3)c(F)cc3c(=O)c(C(=O)O)cn1c23,,,,,,MIC50,0.5–4 µg/mL
Cc1ccc(NC(=S)NNC(=O)CN2C(=O)c3ccccc3C2=O)cc1,,12.5 µg/mL,H37Rv,,BACTEC,inhibition,0%
CCCCc1ccc(Nc2c(C#N)[n+]([O-])c3cc(Cl)ccc3[n+]2[O-])cc1,,,H37Rv,,,MIC,<12.5 µg/mL
OC(c1ccccc1)c1cn(Cc2ccc(Cl)cc2Cl)cc1-c1ccccc1,,,CIP103471,,,MIC,250 µg/mL
COc1ccc2c(=O)cc(-c3ccc(OC)c(O)c3)oc2c1,,128 µg/mL,H37Rv,,resazurin,inhibition,13.9%
O=C(N/N=C/c1ccc(Cl)cc1Cl)c1ccc(F)cc1,,12.5 µg/mL,H37Rv,,BACTEC,inhibition,-21%
COc1ccc(/C=N/NC(=O)c2sc3ccc(Oc4ccccc4)cc3c2Cl)cc1OC,,6.25 µg/mL,H37Rv,,,inhibition,0%
C[C@H]1COc2c(N3CCSCC3)c(F)cc3c(=O)c(C(=O)O)cn1c23,,,,,agar,MIC99,2.14 µM
O=C(c1ccccc1)c1c(CO[N+](=O)[O-])n([O-])c2ccccc2[n+]1=O,,,H37Rv,,,MIC,12.5 µg/mL
CO[C@H]1/C=C/O[C@@]2(C)Oc3c(C)c(O)c4c(O)c(c(/C=N/NC(N)=O)c(O)c4c3C2=O)NC(=O)/C(C)=C\C=C\[C@H](C)[C@H](O)[C@@H](C)[C@@H](O)[C@@H](C)[C@H](OC(C)=O)[C@@H]1C,,,H37Rv,,,MIC,5 µg/mL
c1cc2c(cc1C1OCC3C(c4ccc5c(c4)OCO5)OCC13)OCO2,,128 µg/mL,H37Rv,,resazurin,inhibition,60%
CCC(C)N1CCN(c2cc(=O)c3nc4c(oc3c2)c2c(=O)c3c(O)c(C)c5c(c34)=C(O)[C@@](C)(O/C=C/[C@H](OC)[C@@H](C)[C@@H](OC(C)=O)[C@H](C)[C@H](O)[C@H](C)[C@@H](O)[C@@H](C)/C=C/C=C(/C)C(=O)N2)O5)CC1,,,6 strains (rifampicin-resistant),,,MIC50,≤0.0125 µg/mL
CN(C)c1ccc(/C=N/NC(=O)c2sc3ccc(Oc4ccccc4)cc3c2Cl)cc1,,6.25 µg/mL,H37Rv,,,inhibition,16%
Cc1ccn2c(C(=O)NCc3ccc(NCCOCCN)c(F)c3)c(C)nc2c1,,,H37Rv,,resazurin,MIC90,>32 µM
COc1ccc(/C=C2/CSCC3=C2NC(=S)NC3c2ccc(OC)c(OC)c2OC)c(OC)c1OC,,,H37Rv,,BACTEC,MIC bound,>12.5 µg/mL
CCCCN(CCCC)CCc1c[nH]c2ccccc12,,,MTCS2,,resazurin,MIC,19.53 µg/mL
COc1cc2c(cc1OC)[n+](=O)c1c(n2[O-])-c2cccc3cccc-1c23,,6.25 µg/mL,H37Rv,,resazurin,inhibition,2%
C=C1C(=O)O[C@@H]2C[C@@]3(C)CCCC(=C)[C@@H]3C[C@H]12,,,H37Rv,,,MIC,32 µg/mL
CC1C(=NO)C(C)C(c2ccccc2)N(N=O)C1c1ccccc1,,,H37Rv,,resazurin,MIC bound,>6.25 µg/mL
CCc1nc2ccc(Cl)cn2c1C(=O)NCc1ccc(S(F)(F)(F)(F)F)cc1,,,H37Rv,,resazurin,MIC90,<2 µM

Again, the opening 9 rows:

structure	mutations	tested at	strain or isolate	cells	read by	measure	result
CC1COc2c(N3CCN(C(=O)C4COc5ccccc5O4)CC3)c(F)c([N+](=O)[O-])c3c(=O)c(C(=O)O)cn1c23			MDR-TB		agar	MIC99	1.41 µM
CCOC(=O)c1cn(CC)c2cc3c(cc2c1=O)SCS3		12.5 µg/mL	H37Rv		BACTEC	inhibition	28%
CCOC(=O)c1cn(S(=O)(=O)c2ccc(C)cc2)cc1-c1ccncc1			CIP103471			MIC	4 µg/mL
C=C1C(=O)O[C@@H]2C[C@@]3(C)CCCC(C)=C3C[C@H]12			H37Rv			MIC	32 µg/mL
COc1ccc(-c2c(N)cnc(C(=O)O)c2C)c(O)c1OC			H37Rv		BACTEC	MIC bound	>12.5 µg/mL
CO[C@H]1/C=C/O[C@@]2(C)Oc3c(C)c(O)c4c(O)c(c(/C=N/N5CCC(N(C)C)CC5)c(O)c4c3C2=O)NC(=O)/C(C)=C\C=C\[C@H](C)[C@H](O)[C@@H](C)[C@@H](O)[C@@H](C)[C@H](OC(C)=O)[C@@H]1C			H37Rv			MIC	2 µg/mL
CCc1nc2ccc(Cl)cn2c1C(=O)NCc1ccc(N2CCN(c3ccc(S(F)(F)(F)(F)F)cc3)CC2)cc1			H37Rv		resazurin	MIC90	<2 µM
C=CC1(C)CCC2C(=CCC3C2(C)CC(O)C(O)C3(C)COC2OC(CO)C(O)C(O)C2O)C1		12.5 µg/mL	H37Rv		BACTEC	inhibition	0%
CO[C@H]1/C=C/O[C@@]2(C)Oc3c(C)c(O)c4c(O)c(cc(O)c4c3C2=O)NC(=O)/C(C)=C\C=C\[C@H](C)[C@H](O)[C@@H](C)[C@@H](O)[C@@H](C)[C@H](OC(C)=O)[C@@H]1C			H37Rv			MIC	0.05 µg/mL